# In publication PMC4945073, “Inhibition of the Hantavirus Fusion Process by Predicted Domain III and Stem Peptides from Glycoprotein Gc” (2016):
# Target: Andes hantavirus (ANDV) Gc envelope glycoprotein (Andes hantavirus (ANDV) isolate CHI-7913)
# Assay: sucrose gradient sedimentation
substance,measurement,value
Andes hantavirus (ANDV) Gc envelope glycoprotein (natural protein),stoichiometry N,3
